Pooled drug test results. Numbers come from NIAID ChemDB, via PubChem.

Common to all: enzyme or target tests; species: Hepatitis C virus

Percent inhibition refers to the dose given; in toxicity tests it is the harm to the cells. ICn: concentration for n% inhibition. Conditions beyond the fields shown may differ between rows. a–b is a range or a potency band.

COc1ccc(-c2ccc(-c3cnc4c(C(=O)O)cnn4c3C3CCCCC3)cc2)cc1F ; target: RNA-dependent RNA polymerase ; read-out: IC50 ; value: 1–10 µM
COc1ccc(-c2ccc(Cl)cc2)c(-c2ccc3cc(-c4[nH]c5cc(C(=O)O)ccc5c4C4CCCCC4)ccc3n2)c1 ; target: NS5B polymerase ; read-out: inhibition ; dose: 100 µM ; value: 98.87%
CCOC(=O)c1cnn2c(-c3ccc(F)cc3)cc(-c3ccc(F)cc3)nc12 ; target: RNA-dependent RNA polymerase ; read-out: IC50 ; value: >10 µM
O=C(O)c1nc(-c2ccccc2NS(=O)(=O)c2sc3ccccc3c2Cl)[nH]c(=O)c1O ; target: HCV polymerase ; read-out: IC50 ; value: <100 µM
C/C=C/C(=O)N(CC)c1cc(-c2ccccc2)sc1C(=O)O ; target: NS3 ATPase ; read-out: IC50 ; value: 5–20 µM
CCC(Oc1ccccc1)C(=O)N[C@H](C(=O)N1C[C@H](OCc2ccccc2)C[C@H]1C(=O)N[C@H](C=O)CC)C(C)C ; target: NS3 protease ; read-out: Ki ; value: >100 µM
COc1ccc(CNC(=O)Nc2cccc(-c3nc(C(=O)O)c(O)c(=O)[nH]3)c2)cc1 ; target: HCV polymerase ; read-out: IC50 ; value: <100 µM
CC[C@@H](C=O)NC(=O)[C@@H]1C[C@@H](OCc2ccccc2)CN1C(=O)[C@@H](NC(=O)C(F)c1ccccc1)C(C)C ; target: NS3 protease ; read-out: Ki ; value: >100 µM
Nc1cnn2c(C3CCCCC3)c(-c3ccc(OCc4ccccc4)cc3)cnc12 ; target: RNA-dependent RNA polymerase ; read-out: IC50 ; value: >10 µM
O=C(Nc1ccsc1-c1nc(C(=O)O)c(O)c(=O)[nH]1)OCc1cc(F)ccc1F ; target: HCV polymerase ; read-out: IC50 ; value: <25 µM
CNC(=O)c1c(-c2ccc(F)cc2)oc2cc(N(C)S(C)(=O)=O)c(OCC(=O)c3ccc(OC)cc3)cc12 ; target: Nonstructural protein 5B ; read-out: IC50 ; value: ≤0.5 µM
O=C(O)c1ccc2c(c1)nc(-c1ccc3nc(-c4ccc5c(c4)CCCC5)ccc3c1)n2C1CCCCC1 ; target: NS5B polymerase ; read-out: inhibition ; dose: 33 µM ; value: 99.54%
CNC(=O)c1c(-c2ccc(F)cc2)oc2cc(N(C)S(C)(=O)=O)c(OCc3cc(C)on3)cc12 ; target: Nonstructural protein 5B ; read-out: IC50 ; value: ≤0.5 µM
O=C(Nc1cscc1-c1nc(C(=O)O)c(O)c(=O)[nH]1)OCc1ccccc1C(F)(F)F ; target: HCV polymerase ; read-out: IC50 ; value: <25 µM
CCN(C)c1cc2oc(-c3ccc(F)cc3)c(C(=O)NC)c2c(Cl)c1OC ; target: Nonstructural protein 5B ; read-out: IC50 ; value: ≤0.5 µM
Cc1ccc(C(=O)N(C)c2cc(-c3ccc(CO)cc3)sc2C(=O)O)cc1 ; target: NS3 ATPase ; read-out: IC50 ; value: 5–20 µM
O=C(O)c1ccc2c(c1)nc(-c1ccc3nc(-c4ccc5c(c4)OCO5)ccc3c1)n2C1CCCCC1 ; target: NS5B polymerase ; read-out: inhibition ; dose: 100 µM ; value: 100%
O=C(O)c1cc2nc(-c3cccc(Cl)c3)cc(-c3ccc(Cl)cc3)n2n1 ; target: RNA-dependent RNA polymerase ; read-out: IC50 ; value: >10 µM
O=C(Nc1cscc1-c1nc(C(=O)O)c(O)c(=O)[nH]1)c1ccccc1Cl ; target: HCV polymerase ; read-out: IC50 ; value: <25 µM
COC(=O)c1cc2nc(-c3cccs3)cc(C(F)(F)F)n2n1 ; target: RNA-dependent RNA polymerase ; read-out: IC50 ; value: >10 µM
CCN(CC)c1ncc(CN(C(=O)c2ccc(Cl)cc2Cl)c2cc(-c3ccccc3)sc2C(=O)O)s1 ; target: NS3 ATPase ; read-out: IC50 ; value: <5 µM
O=C(O)c1cc2nc(-c3ccc(OCc4ccccc4)cc3)c(C3CCCCC3)cn2n1 ; target: RNA-dependent RNA polymerase ; read-out: IC50 ; value: 1–10 µM
CC[C@@H](C=O)NC(=O)[C@@H]1C[C@@H](OCc2ccc(C#N)cc2)CN1C(=O)[C@@H](NC(=O)[C@@H](NC(=O)c1cnccn1)C(C)C)C(C)C ; target: NS3 protease ; read-out: Ki ; value: 1–100 µM
CNC(=O)c1c(-c2ccc(F)cc2)oc2cc(N(C)S(C)(=O)=O)c(OCc3ccc(F)cc3F)cc12 ; target: Nonstructural protein 5B ; read-out: IC50 ; value: ≤0.5 µM
O=C(O)c1ccc2c(c1)nc(-c1ccc3nc(-c4ccccc4)c(-c4ccccc4)cc3c1)n2C1CCCCC1 ; target: NS5B polymerase ; read-out: inhibition ; dose: 33 µM ; value: 100%
O=C(Nc1ccsc1-c1nc(C(=O)O)c(O)c(=O)[nH]1)OCc1cc(Cl)ccc1Cl ; target: HCV polymerase ; read-out: IC50 ; value: <25 µM
CN(C)C(=O)c1cnn2c(C3CCCCC3)c(-c3ccc(OCc4ccccc4)cc3)cnc12 ; target: RNA-dependent RNA polymerase ; read-out: IC50 ; value: >10 µM
COc1ccc(-c2ccc(Cl)cc2)c(-c2ccc3cc(-c4nc5cc(C(=O)O)ccc5n4C4CCCC4)ccc3n2)c1 ; target: NS5B polymerase ; read-out: inhibition ; dose: 33 µM ; value: 99.2%
CC(=O)c1ccc(-c2cc(NS(=O)(=O)c3ccc(C)cc3)c(C(=O)O)s2)cc1 ; target: NS3 ATPase ; read-out: IC50 ; value: <5 µM
CCCN(CCC)Cc1ccc2cc(-c3nc4cc(C(=O)O)ccc4n3C3CCCCC3)ccc2n1 ; target: NS5B polymerase ; read-out: inhibition ; dose: 100 µM ; value: 96.01%
CCCC(=O)N(Cc1ccccc1C)c1cc(-c2ccccc2)sc1C(=O)O ; target: NS3 ATPase ; read-out: IC50 ; value: 5–20 µM
O=C(c1ccc2c(c1)nc(-c1cc3ccc(-c4ccccc4-c4ccc(Cl)cc4)nc3cc1F)n2C1CCCCC1)N1CCC(O)CC1 ; target: NS5B polymerase ; read-out: inhibition ; dose: 33 µM ; value: 89.64%
COC(=O)c1nc(-c2sccc2NC(=O)c2ccccc2C(=O)O)[nH]c(=O)c1O ; target: HCV polymerase ; read-out: IC50 ; value: <50 µM
COc1ccc(-c2ccc(O)cc2)c(-c2ccc3cc(-c4nc5cc(C(=O)O)ccc5n4C4CCCCC4)ccc3n2)c1 ; target: NS5B polymerase ; read-out: inhibition ; dose: 33 µM ; value: 94.22%
CCC(=O)N[C@H](C(=O)N1C[C@H](OCc2ccccc2)C[C@H]1C(=O)N[C@H](C=O)CC)C(C)C ; target: NS3 protease ; read-out: Ki ; value: >100 µM

3 of the rows above, restated:

CCCC(=O)N(Cc1ccccc1C)c1cc(-c2ccccc2)sc1C(=O)O ; target: NS3 ATPase ; read-out: IC50 ; value: 5–20 µM
CCN(C)c1cc2oc(-c3ccc(F)cc3)c(C(=O)NC)c2c(Cl)c1OC ; target: Nonstructural protein 5B ; read-out: IC50 ; value: ≤0.5 µM
CCN(CC)c1ncc(CN(C(=O)c2ccc(Cl)cc2Cl)c2cc(-c3ccccc3)sc2C(=O)O)s1 ; target: NS3 ATPase ; read-out: IC50 ; value: <5 µM